Test results from patent publication US20220202929A1, “DRUG-RESISTANT INFLUENZA VIRUS STRAINS” (President and Fellows of Harvard College, priority 2019, published 2022).

Test system: parent influenza A/WSN/33 (H1N1) strain
Experiment: microbe, parasite or virus in culture
Format: cell-based

Compound | IC50
NC12CC3CC(CC(C3)C1)C2 [amantadine] | 47 nM
CCOC(=O)C1=C[C@@H](OC(CC)CC)[C@H](NC(C)=O)[C@@H](N)C1 [oseltamivir] | 58 nM
